Assay results published in article PMC6359284 (Molecules, 2019).

Assay: general procedure: Fmoc solid-phase peptide synthesis; NovaSyn TGR resin (0.25 mmol/g); HATU/DIPEA
Conditions: whole synthesis, analytical RP-HPLC

| Substance | final HPLC purity [%] |
| --- | --- |
| RGDLMKLAK(FB) | >99 |
| RGDLRELAK(FB) | >99 |
| VGDLTYLKK(FB)KVART | >99 |
